Measurements from “University of Dundee, Small-Polar-MMV Screening Library” (2021), ChEMBL document CHEMBL3988442.

Mtb cholesterol medium: 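Whole-cell growth test on Mycobacterium tuberculosis, read after 4 days in a medium based on cholesterol and the lipid DPPC; the read-out is not stated. Compounds at 500 µM. Direction is inferred from retests: higher values go with more growth inhibition. Size under these conditions: about 18,000 compounds, about 900 of them at 50% or above in at least one test.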
Mtb glucose medium: 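Phenotypic screen: M. tuberculosis growth, glucose 7H9 medium, 3 days; the read-out is not stated. Tested at 500 µM. Direction is inferred from retests: higher values go with more growth inhibition. About 18,000 compounds were tested under these conditions; 7.9% (about 1,400) showed 50% or more at least once.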

Values are the deposited “Percent Effect”, in %. How 0% and 100% were set is not recorded. Most values in the screen are low, and negative values occur. Many other results are left out here, so strong results are more common than in the screen. A dash means the value is not listed here; it may have been measured.

| # | Compound | Mtb cholesterol medium | Mtb glucose medium |
|---|---|---|---|
| 1 | `Cc1cc(N)nc(SCc2cc(C)on2)n1` | 5.575 | - |
| 2 | `CCN1C[C@H](NC(=O)c2ccc(Cl)s2)[C@@H](OC)C1` | 51.35 | 66.77 |
| 3 | `CNCC(=O)Nc1cc(F)cc(F)c1` | 3.054 | 20.29 |
| 4 | `Cc1nn(C)c2nc(NCCSc3ncn[nH]3)sc12` | - | 51.77 |
| 5 | `NCCc1ccnc2ccccc12` | -8.211 | - |
| 6 | `C[C@@H]1CN(C(=O)CCc2cnn(C)c2)C[C@]1(C)O` | 12.4 | - |
| 7 | `Cn1cc(NC(=O)NCC2(O)CCCCC2)cn1` | -2.539 | - |
| 8 | `NC(=O)CCN1CCN(c2ncc(Br)cn2)CC1` | 17.73 | - |
| 9 | `OC1CNCCNC1` | -16.52 | - |
| 10 | `CCOC(=O)CNc1ccc(OC)cc1` | - | 59.11 |
| 11 | `CC(C)OCCn1cnc(C#N)c1C#N` | 9.824 | - |
| 12 | `CC(CNC(=O)NCc1cc[nH]n1)N1CCOCC1` (stereo not drawn) | - | 11.63 |
| 13 | `Cc1ncsc1C(=O)NCC1CN(CC(C)C)CCO1` (stereo not drawn) | -3.849 | - |
| 14 | `CCO[C@H]1CN(C)C[C@@H]1NC(=O)c1ccc[nH]1` | - | -2.742 |
| 15 | `CC(=O)NC(C)C(=O)Nc1ccc2c(c1)OCCO2` (stereo not drawn) | 1.362 | - |
| 16 | `CC(C)(CNC(=O)c1nccnc1N)N1CCOCC1` | - | 11.77 |
| 17 | `O=C(c1cnc[nH]1)N1C[C@H](O)[C@@H](N2CCCCC2)C1` | - | 3.002 |
| 18 | `C=C(Br)CNC(=O)C1CC(=O)N(CC(C)C)C1` (stereo not drawn) | - | 33.69 |
| 19 | `COc1ccc(C(=O)N[C@@H]2CCOC[C@H]2O)cn1` | - | 3.326 |
| 20 | `COCCN(C)CC(=O)N1C[C@@H](C)[C@@](C)(O)C1` | -5.218 | - |
| 21 | `CC(C)OCC(=O)N1C[C@@H](C)[C@](O)(C2CC2)C1` | -17.23 | - |
| 22 | `CNC(=O)Cc1ccc(-c2ccc(F)c(CO)c2)cc1` | -0.5293 | - |
| 23 | `Cc1ccc(S(=O)(=O)N2CCC[C@@H](N)C2)c(C)c1` | 57.67 | 76.47 |
| 24 | `CCSCCC(=O)N1CCC(c2nnc[nH]2)CC1` | -5.648 | - |
| 25 | `CC(C)c1cccc(S(=O)(=O)NCCCN)c1` | - | 58.99 |
| 26 | `CCOC(=O)c1cc(CC)n(CCC#N)n1` | - | 2.843 |
| 27 | `CN1CCCN(C(=O)CCc2ccsc2)CC1` | - | 39.42 |
| 28 | `NC1(C2CC2)CCOCC1` | - | 1.501 |
| 29 | `CCC1CN(CCCOC)CCN1CCOC` (stereo not drawn) | -6.99 | - |
| 30 | `CN(C)CCCOc1cnccc1CN` | -9.153 | - |
| 31 | `COCC(=O)N(C)c1ccccc1` | -6.933 | -6.743 |
| 32 | `NCc1ccc2c(c1)OCCO2` | -6.368 | - |
| 33 | `NC1CC(c2cc(NCCCc3ncc[nH]3)ncn2)C1` (stereo not drawn) | 4.591 | - |
| 34 | `CC(CN1CCCC1=O)NCc1ccc(C#N)cc1` (stereo not drawn) | - | 7.637 |
| 35 | `O=C(C1CCOCC1)N1CCCC(c2ncc[nH]2)C1` (stereo not drawn) | 3.628 | - |
| 36 | `CCCc1nc(CN2Cc3ncccc3C2=O)cs1` | 40.09 | 81.33 |
| 37 | `c1ccc(COC2CCNC2)nc1` (stereo not drawn) | - | -3.885 |
| 38 | `CCS(=O)(=O)CC(C)NC1CCN(C(C)C)CC1` (stereo not drawn) | -3.454 | - |
| 39 | `COCCN(CCN(C)C)C(=O)Nc1ccncc1` | - | -2.214 |
| 40 | `CS(=O)(=O)CC1CCCN(c2nnc(C3CC3)o2)C1` (stereo not drawn) | - | 4.417 |
| 41 | `Cn1nc(CN)c2ccccc21` | 21.98 | - |
| 42 | `Cc1nccn1CCCN(C)CC1COCCO1` (stereo not drawn) | - | -12.81 |
| 43 | `CCCS(=O)(=O)NC1CCN(c2ccncc2Cl)CC1` | - | 48.98 |
| 44 | `Cc1cc(C(=O)N(C)CC(C)(CO)CO)cc(C)c1F` | - | 28.96 |
| 45 | `NCc1c(C(N)=O)oc2ccccc12` | - | 37.71 |
| 46 | `COc1ccccc1C(N)c1ccccn1` (stereo not drawn) | - | 59.12 |
| 47 | `c1ccc(-c2noc(C3CCCO3)n2)nc1` (stereo not drawn) | 9.225 | 11.22 |
| 48 | `CC1CCCCN1S(=O)(=O)c1ccc(CCN)cc1` (stereo not drawn) | - | 55.9 |
| 49 | `N#Cc1c(F)cccc1NCCN` | 17.63 | 13.02 |
| 50 | `CCOCCCC(=O)N(C)Cc1cnc(C)s1` | - | -0.9036 |
| 51 | `CCN1CCN(CCOc2cccc(C(C)=O)c2)CC1` | - | -15.35 |
| 52 | `Cc1ccc(C(=O)N(C)C)cn1` | - | -11.72 |
| 53 | `Cc1nc(C2(N)CCC2)no1` | -7.464 | - |
| 54 | `Cc1n[nH]c(C)c1NC(=O)NCc1ccco1` | - | 8.052 |
| 55 | `C1CCC(NC2CCNCC2)C1` | - | -1.737 |
| 56 | `Cc1ccc(NC(=O)CC(C)C)cc1` | - | -6.701 |
| 57 | `COc1ncccc1CNC(=O)N1CCCN(C)CC1` | 1.398 | - |
| 58 | `COCC(C)NC(=O)NCc1ccc(F)cc1` (stereo not drawn) | - | 19.02 |
| 59 | `COc1ccc(C#N)cc1CN1CCNC(=O)CC1` | -8.317 | - |
| 60 | `CC(C)c1ccccc1OCC(O)CN(C)CCO` (stereo not drawn) | 61.34 | 79.84 |
| 61 | `O=C(CN1CCCC(O)C1)NCCCc1ccccn1` (stereo not drawn) | - | 6.492 |
| 62 | `Cc1ccc2nc(CN3CCC[C@H]3CO)cc(O)c2c1` | -20.06 | - |
| 63 | `CC(C(=O)N(C)Cc1ccncc1)n1cncn1` (stereo not drawn) | - | 5.969 |
| 64 | `CC(=O)NCCC(=O)NCC1(c2ccccc2)CC1` | - | 25.11 |
| 65 | `N#Cc1c[nH]c(C(=O)NCC(=O)N2CCNCC2)c1` | - | 1.241 |
| 66 | `NC(=O)C(OC(=O)CCc1ccc(F)cc1)C1CC1` (stereo not drawn) | - | 43.48 |
| 67 | `Cn1nccc1C(=O)NCc1cccs1` | 24 | 42.87 |
| 68 | `CCCc1nc(C(=O)N2CC(c3ccncc3)C2)cs1` | 65.14 | 75.62 |
| 69 | `CC(C(N)=O)S(=O)(=O)Cc1ccccc1C(F)(F)F` (stereo not drawn) | -8.284 | - |
| 70 | `Cn1ncc(Cl)c1C(=O)NCCN1CCCCC1` | - | 7.281 |
| 71 | `CCC(C)(C)NC(=O)C1CC(=O)N(CC(F)(F)F)C1` (stereo not drawn) | - | 8.342 |
| 72 | `NCC(=O)N(Cc1cccs1)Cc1cccs1` | 73.12 | 74.2 |

For reference, 8 entries once more:

Compound	Mtb cholesterol medium	Mtb glucose medium
COCC(C)NC(=O)NCc1ccc(F)cc1 (stereo not drawn)	-	19.02
Cc1n[nH]c(C)c1NC(=O)NCc1ccco1	-	8.052
NC(=O)CCN1CCN(c2ncc(Br)cn2)CC1	17.73	-
CCOC(=O)CNc1ccc(OC)cc1	-	59.11
CCC(C)(C)NC(=O)C1CC(=O)N(CC(F)(F)F)C1 (stereo not drawn)	-	8.342
Cc1cc(C(=O)N(C)CC(C)(CO)CO)cc(C)c1F	-	28.96
NCCc1ccnc2ccccc12	-8.211	-
CCCc1nc(C(=O)N2CC(c3ccncc3)C2)cs1	65.14	75.62